Compound potency records, mixed from different reports. Data source: NIAID ChemDB in PubChem.

Shared fields: growth or infection tests; organism: HIV-1; cell line: MT-4; endpoint: EC50

ECn: concentration that inhibits the pathogen or its effect by n%. a–b is a range or a potency band. An empty or dashed field is not shown. Neighbouring rows are from separate reports.

structure,strain or isolate,mutations,method,value
O=c1ncc2nc(-c3ccccn3)c(-c3ccccn3)nc2[nH]1,IIIB,,cytopathic effect / MTT / absorbance,>82.3 µM
CC(C)CN(C[C@@H](O)[C@H](Cc1ccccc1)NC(=O)O[C@H]1CO[C@H]2OCC[C@H]21)S(=O)(=O)c1ccc(-c2cnccn2)cc1,LAI,,cytopathic effect / MTT,0.008 µM
NC1N=CNc2nc(-c3ccccn3)c(-c3ccccn3)nc21,IIIB,,cytopathic effect / MTT / absorbance,>12.1 µM
CC(C)CN(C[C@@H](O)[C@H](Cc1ccccc1)NC(=O)O[C@H]1CO[C@H]2OCC[C@H]21)S(=O)(=O)c1ccc2c(c1)OCO2,NL4-3 (IDV5),L10F/L24I/M46I/I54V/L63P/A71V/G73S/V82T,p24,0.0037 µM
CC(C)CN(C[C@@H](O)[C@H](Cc1ccccc1)NC(=O)O[C@H]1CO[C@H]2OCC[C@H]21)S(=O)(=O)c1ccc(-c2coc(-c3ccc(Br)cc3)n2)cc1,LAI,,cytopathic effect / MTT,0.032 µM
C=C1[C@@H](C)C2[C@H](Cc3c[nH]c4ccccc34)NC(=O)[C@]23c2ccc([nH]2)C(=O)[C@@H](C)C[C@@H](C)C/C=C/[C@H]3[C@@H]1O,LAI,,p24 / ELISA / antigen,0.34 µM
CCOCn1c(Cc2cccc(OCC3CO3)c2)c(CC)c(=O)[nH]c1=O,RT-Y181C Mutant NNRTI-resistant,,cytopathic effect / MTT,>80 µM
C/C1=C\[C@@H](C)C/C=C/[C@H]2[C@@H]3O[C@]3(C)[C@@H](C)C3[C@H](Cc4c[nH]c5ccccc45)NC(=O)[C@]32c2ccc([nH]2)C1=O,LAI,,p24 / ELISA / antigen,6.12 µM
COc1cc(Cc2c(C(C)C)c(=O)[nH]c(=O)n2COCCOc2ccccc2)cc(OC)c1,N119,Y181C,MTT,>33 µM
O=c1[nH]cnc2nc(-c3ccccn3)c(-c3ccccn3)nc12,IIIB,,cytopathic effect / MTT / absorbance,>50.52 µM
CCOCn1c(Cc2cccc(OCC=NO)c2)c(CC)c(=O)[nH]c1=O,RT-Y181C Mutant NNRTI-resistant,,cytopathic effect / MTT,35 µM
CC(C)COC(=O)N(Cc1ccccc1)CC(O)C(Sc1ccccc1)N(Cc1ccccc1)C(=O)OCC(C)C,LAV,,syncytia,0.1 µM
CC[C@]1(CO)O[C@@H](n2cnc3c(=O)[nH]c(N)nc32)C[C@@H]1O,NL4-3,,absorbance,0.006 µM
CN(C(=O)N(Cc1ccccc1)CC(O)C(Sc1ccccc1)N(Cc1ccccc1)C(=O)N(C)c1ccccc1)c1ccccc1,LAV,,syncytia,10–50 µM
C=C1CN(S(=O)(=O)c2ccc(C)cc2)CCCN(C(C)=O)CCCN(S(=O)(=O)c2ccc(C)cc2)C1,NL4-3,,p24,>75 µM
CCc1c(Cc2cc(OC)cc(OC)c2)[nH]c(=O)[nH]c1=O,IIIB,,MTT,>100 µM
CC1(C)C2CC[C@@]3(C)C4CC[C@@]5(C)CC[C@](C)(C(=O)O)C[C@H]5C4=CC(=O)C3[C@@]2(C)CC[C@@H]1O[C@@H]1O[C@H](C(=O)O)[C@@H](O[C@@H]2O[C@H](C(=O)O)[C@@H](O)[C@H](O)[C@H]2O)[C@H](O)[C@H]1O,EVK,,p24,125 µg/mL
C=CCOc1cccc(Cc2nc(N(C)C)[nH]c(=O)c2CC)c1,RT-Y181C Mutant NNRTI-resistant,,cytopathic effect / MTT,>20 µM
CC[C@H](C)[C@H](NC(=O)C[C@H](O)[C@H](CC(C)C)NC(=O)[C@@H](NC(=O)[C@H](Cc1ccc(O)cc1)NC(=O)OCc1ccccc1)C(C)C)C(=O)N[C@@H](Cc1ccccc1)C(=O)OC,,,syncytia,20 µM
O=c1[nH]cnc2c1ncn2[C@H]1C[C@@H](OCP(=O)(O)O)CO1,IIIB,,MTT / absorbance,>395 µM
Nc1[nH]c(=O)nc2nc(-c3ccccn3)c(-c3ccccn3)nc12,IIIB,,cytopathic effect / MTT / absorbance,>75.34 µM
COC(=O)C[C@H](O)[C@H](CC(C)C)NC(=O)[C@H](C)NC(=O)C[C@H](O)[C@H](CC(C)C)NC(=O)[C@@H](NC(=O)[C@H](Cc1c[nH]c2ccccc12)NC(=O)OCc1ccccc1)C(C)C,,,syncytia,10 µM
N#C[C@]1(CO)O[C@@H](n2cnc3c(N)nc(N)nc32)C[C@@H]1O,NL4-3,,absorbance,0.0003 µM
CC(C)[C@H](NC(=O)OC(C)(C)C)C(=O)NCC(O)C(NC(=O)[C@@H](NC(=O)OC(C)(C)C)C(C)C)Sc1ccccc1,LAV,,syncytia,0.1 µM
CC(C)(CS(=O)(=O)[O-])[NH2+]C(=O)C(CC(F)(OC(F)(F)C(F)(OC(F)(F)C(F)(OC(F)(F)C(F)(F)C(F)(F)F)C(F)(F)F)C(F)(F)F)C(F)(F)F)C(F)(OC(F)(F)C(F)(OC(F)(F)C(F)(OC(F)(F)C(F)(F)C(F)(F)F)C(F)(F)F)C(F)(F)F)C(F)(F)F,IIIB,,cytopathic effect / MTT,0.85 µg/mL
CC(=O)N[C@@H](Cc1c[nH]c2ccccc12)C(=O)N[C@H](C(=O)N[C@@H](CC(C)C)[C@@H](O)CC(=O)N[C@@H](CC(C)C)C(=O)N[C@@H](Cc1ccccc1)C(N)=O)C(C)C,,,syncytia,10 µM
Nc1nc(N)c2ncn([C@H]3CS[C@@H](CO)O3)c2n1,,,cytopathic effect,231.1 µM
S=c1nc[nH]c2nc(-c3ccccn3)c(-c3ccccn3)nc12,IIIB,,cytopathic effect / MTT / absorbance,>115 µM
C=C1CN(S(=O)(=O)c2ccc(C)cc2)CCCN(C(=O)OCC)CCCN(S(=O)(=O)c2ccc(C)cc2)C1,NL4-3,,p24,27.2 µM
C=CCOc1cccc(Cc2c(CC)c(=O)n(COCC)c(=O)n2COCC)c1,RT-K103N Y181C Mutant NNRTI-resistant,,cytopathic effect / MTT,>20 µM
CC1=C(C)[C@@H](O)[C@@H]2/C=C/C[C@H](C)C[C@H](C)C(=O)c3ccc([nH]3)[C@]23C(=O)N[C@@H](Cc2c[nH]c4ccccc24)C13,LAI,,p24 / ELISA / antigen,0.61 µM
Nc1nc(N)c2ncn([C@@H]3CS[C@@H](CO)O3)c2n1,,,cytopathic effect,22.4 µM
CCOCn1c(Cc2ccccc2)c(C(C)C)c(=O)[nH]c1=O,IIIB,,cytopathic effect / MTT,0.03 µM
CCc1c(Cc2cc(C)cc(C)c2)n(COCCOc2ccccc2)c(=O)[nH]c1=O,IIIB,,MTT,>0.009 µM
Cc1cn([C@H]2C=C[C@@H](CO)O2)c(=O)[nH]c1=O,HXB2-RT-T215 Recombinant,,cytopathic effect / MTT,0.52 µM
Nc1ncnc2c1ncn2[C@@H]1CO[C@@H](CO)S1,,,cytopathic effect,>395 µM
C=CCCc1cccc(Cc2[nH]c(=S)[nH]c(=O)c2CC)c1,RT-K103N Y181C Mutant NNRTI-resistant,,cytopathic effect / MTT,>80 µM
Cc1cc(Br)cc(C)c1OCC(=O)N[C@@H](Cc1ccccc1)[C@H](O)CN(CC(C)C)S(=O)(=O)c1ccc(-c2csc(Nc3ccncc3)n2)cc1,LAI,,cytopathic effect / MTT,20 µM
CC(C)[C@H](N)C(=O)N(Cc1ccccc1)CC(O)C(Sc1ccccc1)N(Cc1ccccc1)C(=O)[C@@H](N)C(C)C,LAV,,syncytia,10 µM
CCOC(=O)Cn1nccc1-c1ccc(S(=O)(=O)N(CC(C)C)C[C@@H](O)[C@H](Cc2ccccc2)NC(=O)COc2c(C)cccc2C)cc1,LAI,,cytopathic effect / MTT,1.995 µM
C=CCOc1cccc(Cc2nc(SC(C)C)nc(OC(C)C)c2CC)c1,RT-K103N Y181C Mutant NNRTI-resistant,,cytopathic effect / MTT,>100 µM
C=C1CN(S(=O)(=O)c2ccc(C)cc2)CCCN(Cc2cccnc2)CCCN(S(=O)(=O)c2ccc(C)cc2)C1,NL4-3,,p24,5.6 µM
CCOCn1c(Cc2cccc(CCC=O)c2)c(CC)c(=O)[nH]c1=O,RT-K103N Y181C Mutant NNRTI-resistant,,cytopathic effect / MTT,>100 µM
Nc1nc2c(ncn2[C@@H]2CS[C@@H](CO)O2)c(=O)[nH]1,,,cytopathic effect,>372 µM
[N-]=[N+]=N[C@]1(CO)O[C@@H](n2cnc3c(=O)[nH]c(N)nc32)C[C@@H]1O,NL4-3,,absorbance,0.0005 µM
CC1=C(C)[C@@H](O)[C@@H]2/C=C/C[C@H](C)/C=C(\C)C(=O)c3ccc([nH]3)[C@]23C(=O)N[C@@H](Cc2c[nH]c4ccccc24)C13,LAI,,p24 / ELISA / antigen,0.11 µM
CC(C)c1c(Cc2ccccc2)n(COCCOc2ccccc2)c(=O)[nH]c1=O,N119,Y181C,MTT,>35 µM
Cc1cn([C@H]2C[C@@H](OCP(=O)(O)O)CO2)c(=O)[nH]c1=O,IIIB,,MTT / absorbance,27.07 µM
CC(C)CN(C[C@@H](O)[C@H](Cc1ccccc1)NC(=O)O[C@H]1CO[C@H]2OCC[C@H]21)S(=O)(=O)c1ccc2nc(NC3CCN(C4CCCC4)CC3)sc2c1,T13572,V32I L76V V82I,reporter gene,1.5 nM
Cc1cc(C)cc(S(=O)(=O)c2c(C(=O)NCC(=O)NC(C)C(=O)NN)[nH]c3ccc(Cl)cc23)c1,Nevirapine resistant (RT K103N Y181C),,cytopathic effect / MTT,3.5 µM
CCCOC(=O)[C@H](Cc1ccccc1)NP(=O)(CO[C@H]1CO[C@@H](n2cc(C)c(N)nc2=O)C1)N[C@@H](Cc1ccccc1)C(=O)OCCC,IIIB,,MTT / absorbance,≥23.4 µM
O=C(O[C@H]1CCOC1)N(Cc1ccccc1)CC(O)C(Sc1ccccc1)N(Cc1ccccc1)C(=O)O[C@H]1CCOC1,LAV,,syncytia,10 µM
C=C1CN(S(=O)(=O)c2ccc(C)cc2)CCCN(CC(C)CC)CCCN(S(=O)(=O)c2ccc(C)cc2)C1,NL4-3,,p24,0.98 µM
Nc1nc2nc(-c3ccccn3)c(-c3ccccn3)nc2c(=O)[nH]1,IIIB,,cytopathic effect / MTT / absorbance,>67.22 µM
CC(C)[C@H](C)CC[C@](C)(O)[C@H]1C(=O)C[C@H]2[C@@H]3C(=O)C=C4C[C@@H](O)CC[C@]4(C)[C@H]3CC[C@@]21C,NL4-3,,MTT,0.09 µM
COc1ccc(-c2csc3nc4nc(-c5ccccn5)c(-c5ccccn5)nc4c(=O)n23)cc1,IIIB,,cytopathic effect / MTT / absorbance,>2.11 µM
Nc1ccn([C@H]2CC[C@@H](CO)O2)c(=O)n1,,V106A,MTT,0.57 µM
CCc1c(Cc2cc(OC)cc(OC)c2)[nH]c(=S)[nH]c1=O,N119,Y181C,MTT,>100 µM
CC(C)CN(C[C@@H](O)[C@H](Cc1ccccc1)NC(=O)O[C@H]1CO[C@H]2OCC[C@H]21)S(=O)(=O)c1ccc(-c2cn3ccsc3n2)cc1,LAI,,cytopathic effect / MTT,0.025 µM
Nc1nc2c(ncn2[C@H]2C[C@H](O)[C@](CO)(C(F)(F)F)O2)c(=O)[nH]1,NL4-3,,absorbance,0.027 µM
CCCOC(=O)[C@H](Cc1ccccc1)NP(=O)(CO[C@H]1CO[C@@H](n2cnc3c(N)nc(N)nc32)C1)N[C@@H](Cc1ccccc1)C(=O)OCCC,IIIB,,MTT / absorbance,0.048 µM
CCOCn1c(Cc2cc(OC)cc(OC)c2)c(C(C)C)c(=O)[nH]c1=O,IIIB,,MTT,0.3 µM

For reference, 7 entries again:

structure | strain or isolate | mutations | method | value
CC1(C)C2CC[C@@]3(C)C4CC[C@@]5(C)CC[C@](C)(C(=O)O)C[C@H]5C4=CC(=O)C3[C@@]2(C)CC[C@@H]1O[C@@H]1O[C@H](C(=O)O)[C@@H](O[C@@H]2O[C@H](C(=O)O)[C@@H](O)[C@H](O)[C@H]2O)[C@H](O)[C@H]1O | EVK |  | p24 | 125 µg/mL
CCOCn1c(Cc2cccc(OCC=NO)c2)c(CC)c(=O)[nH]c1=O | RT-Y181C Mutant NNRTI-resistant |  | cytopathic effect / MTT | 35 µM
Nc1ncnc2c1ncn2[C@@H]1CO[C@@H](CO)S1 |  |  | cytopathic effect | >395 µM
CC(C)[C@H](NC(=O)OC(C)(C)C)C(=O)NCC(O)C(NC(=O)[C@@H](NC(=O)OC(C)(C)C)C(C)C)Sc1ccccc1 | LAV |  | syncytia | 0.1 µM
C=C1[C@@H](C)C2[C@H](Cc3c[nH]c4ccccc34)NC(=O)[C@]23c2ccc([nH]2)C(=O)[C@@H](C)C[C@@H](C)C/C=C/[C@H]3[C@@H]1O | LAI |  | p24 / ELISA / antigen | 0.34 µM
CC(=O)N[C@@H](Cc1c[nH]c2ccccc12)C(=O)N[C@H](C(=O)N[C@@H](CC(C)C)[C@@H](O)CC(=O)N[C@@H](CC(C)C)C(=O)N[C@@H](Cc1ccccc1)C(N)=O)C(C)C |  |  | syncytia | 10 µM
CC(C)CN(C[C@@H](O)[C@H](Cc1ccccc1)NC(=O)O[C@H]1CO[C@H]2OCC[C@H]21)S(=O)(=O)c1ccc(-c2cn3ccsc3n2)cc1 | LAI |  | cytopathic effect / MTT | 0.025 µM